A mixed list of measured activities; the numbers were collected in NIAID ChemDB.

Common to all: tests in culture; organism: Mycobacterium tuberculosis

Percent inhibition refers to the dose given; in toxicity tests it is the harm to the cells. A number after MIC or MFC names an inhibition level or a share of isolates. MIC bound: limit read from a one-dose screen. Blank or dashed fields: not listed here. ECn is the concentration giving n% inhibition of infection, replication or growth. Conditions beyond the fields shown may differ between rows. a–b is a range or a potency band.

compound | changes | read by | conditions | strain or isolate | cells | dose | endpoint | result
NC(=O)/C(=C\c1ccccc1)n1nc2ccccc2n1 |  |  |  | H37Rv |  | 12.5 µg/mL | inhibition | 0%
CCCCOc1ccc(C(=O)O)cc1 |  |  |  | H37Rv |  |  | MIC | 7 µM
O=S1(=O)Oc2c(Cl)cc(Cl)cc2S(=O)(=O)Oc2c(Cl)cc(Cl)cc21 |  | BACTEC |  | H37Rv |  | 12.5 µg/mL | inhibition | 14%
NC[C@H]1O[C@H](O[C@H]2[C@H](O)[C@@H](O[C@H]3O[C@H](CO)[C@@H](O)[C@H](N)[C@H]3O)[C@H](N)C[C@@H]2N)[C@H](O)[C@@H](O)[C@@H]1O |  |  |  | TN3187 (W1) |  |  | MIC | >256 µg/mL
NNC(=O)c1ccncc1 |  | resazurin | pH 6 | H37Rv |  |  | MIC | 0.2 µM
O=C(Nc1ccc(C2=NCCN2)cc1)c1cncc(C(=O)Nc2ccc(C3=NCCN3)cc2)c1 |  | BACTEC |  | H37Rv |  | 12.5 µg/mL | inhibition | 10%
CO[C@H]1/C=C/O[C@@]2(C)Oc3c(C)c(O)c4c(O)c(c5c(c4c3C2=O)Nc2c(O)cc(N3CCN4CCCC4C3)cc2O5)NC(=O)/C(C)=C\C=C\[C@H](C)[C@H](O)[C@@H](C)[C@@H](O)[C@@H](C)[C@H](OC(C)=O)[C@@H]1C |  |  |  | H37Rv |  |  | MIC | 0.15 µg/mL
CN[C@@H]1[C@H](O[C@H]2[C@H](O[C@H]3[C@H](O)[C@@H](O)[C@H](N=C(N)N)[C@@H](O)[C@@H]3N=C(N)N)O[C@@H](C)[C@]2(O)C=O)O[C@@H](CO)[C@H](O)[C@H]1O |  |  |  | 2 isolates |  |  | MIC | >1000 µg/mL
C=CCCN1CCN(c2cc(O)c3c(c2)Oc2c4c(O)c5c(O)c(C)c6c(c5c2N3)C(=O)[C@@](C)(O/C=C/[C@H](OC)[C@@H](C)[C@@H](OC(C)=O)[C@H](C)[C@H](O)[C@H](C)[C@@H](O)[C@@H](C)/C=C/C=C(/C)C(=O)N4)O6)CC1 |  |  |  | H37Rv |  |  | MIC | 0.017 µg/mL
COc1c(N2CCNC(C)C2)c(F)cc2c(=O)c(C(=O)O)cn(C3CC3)c12 |  |  |  | 23 isolates |  |  | MIC90 | 0.031 µg/mL
CCCCCSc1ncnc2nc[nH]c12 |  |  |  | H37Rv |  | 6.25 µg/mL | inhibition | 0%
CO[C@H]1/C=C/O[C@@]2(C)Oc3c(C)c(O)c4c(O)c(c5c(c4c3C2=O)Nc2c(O)cc(N3CCN(CCC(C)C)CC3)cc2O5)NC(=O)/C(C)=C\C=C\[C@H](C)[C@H](O)[C@@H](C)[C@@H](O)[C@@H](C)[C@H](OC(C)=O)[C@@H]1C |  |  |  | H37Rv |  |  | MIC | 0.07 µg/mL
CC(=O)OC[C@]12CC[C@@]3(C)CC=C(C)C=C[C@H]3[C@@H]1CC[C@@H]2C(C)C |  | visual reading / absorbance |  | H37Rv |  |  | MBC | 151.3 µM
COc1cc(/C=C(\C#N)n2nc3ccccc3n2)cc(OC)c1OC |  |  |  | H37Rv |  | 12.5 µg/mL | inhibition | 0%
CC1(C)C2CCC13CS(=O)(=O)N1OC13C(=O)O2 |  | BACTEC |  | H37Rv |  |  | MIC bound | >12.5 µg/mL
O=C(N/N=C/c1ccccc1O)c1cc(-c2ccc(F)cc2F)ccc1O |  | resazurin |  | H37Rv |  |  | MIC | >6.25 µg/mL
Cc1ccccc1CSc1ncnc2nc[nH]c12 |  |  |  | H37Ra |  |  | MIC | >12.8 µg/mL
CC(=O)Nc1ccc(/C=N/NC(N)=S)cc1 |  |  |  | 131 |  |  | MIC | 0.08 µg/mL
CC1COc2c(N3CCN(C)CC3)c(F)cc3c(=O)c(C(=O)O)cn1c23 | Extensively drug-resistant | agar |  | H37Rv |  |  | MIC | 34.59 µM
O=C1c2ccccc2CN(c2ccccc2)C(=Nc2ccccc2)N1c1ccccc1 |  | BACTEC |  | H37Rv |  | 12.5 µg/mL | inhibition | 8%
CN(C)[C@@H]1C(=O)C(C(N)=O)=C(O)[C@@]2(O)C(=O)C3=C(O)c4c(O)cccc4[C@@](C)(O)[C@H]3[C@H](O)[C@@H]12 |  |  |  |  |  |  | MIC | 5–10 µg/mL
CC(C)[C@H]1CC[C@H]2[C@@H]3C=C[C@](C)(O)CC[C@]3(C)CC[C@]12C(=O)O |  | visual reading / absorbance |  | H37Rv |  |  | MIC | 312 µM
CCCCCOc1ccc(C(=O)O)cc1 |  |  |  | H37Rv |  |  | MIC | 7 µM
O=C(N/N=C/c1ccc(F)cc1)c1cc(-c2ccc(F)cc2F)ccc1O |  | resazurin |  | H37Rv |  | 6.25 µg/mL | inhibition | 19%
CCN(CC)C(=S)S[Se](SC(=S)N(CC)CC)(SC(=S)N(CC)CC)SC(=S)N(CC)CC |  | BACTEC |  | H37Rv |  |  | MIC | 0.8 µg/mL
COc1ccccc1CSc1ccncc1 |  |  |  | H37Ra |  |  | MIC | >12.8 µg/mL
CSC(=S)NN=C(C)C |  | BACTEC |  | H37Rv |  |  | MIC | 0.78 µg/mL
CCC(C)N1CCN(c2cc(O)c3c(c2)Oc2c4c(O)c5c(O)c(C)c6c(c5c2N3)C(=O)[C@@](C)(O/C=C/[C@H](OC)[C@@H](C)[C@@H](OC(C)=O)[C@H](C)[C@H](O)[C@H](C)[C@@H](O)[C@@H](C)/C=C/C=C(/C)C(=O)N4)O6)CC1 |  |  |  | H37Rv |  |  | MIC | 0.017 µg/mL
C=C[C@]1(C)C[C@@H](OC(=O)CO)[C@]2(C)C(C)CC[C@]3(CCC(=O)C32)[C@@H](C)[C@@H]1O |  | resazurin |  | mc(^2)7000 |  |  | MIC | 25–50 µg/mL
N#C/C(=C\c1cccs1)n1nc2ccccc2n1 |  |  |  | H37Rv |  | 12.5 µg/mL | inhibition | 10%
CCN(CC)CCSCC(=O)O[C@H]1C/C(C)=C\C[C@@]23CCCC1C2C(=O)CC3 |  | resazurin |  | mc(^2)7000 |  |  | MIC | 50 µg/mL
Cc1cc2c(=O)cc(-c3ccncc3)oc2c(C(N)=O)c1C |  | resazurin |  | H37Rv |  | 6.25 µg/mL | inhibition | -5%
CC(=O)c1ccccc1-n1ccc2c3c(N)nc(N)nc3ccc21.Cl |  | resazurin |  | ATCC 2724 |  |  | EC50 | 2.57 µM
COC(=O)c1ccc(NC(=O)CCl)cc1S(=O)(=O)NC(=O)Nc1nccc(OC)n1 |  |  |  | H37Rv |  |  | MIC | >80 µg/mL
CC1(C)CC(N=c2cc3n(-c4cc(Cl)c(Cl)c(Cl)c4)c4ccccc4nc-3cc2Nc2cc(Cl)c(Cl)c(Cl)c2)CC(C)(C)N1 |  |  | inside macrophages | H37Rv | Macrophages | 0.005 µg/mL | inhibition | 85%
COc1cc2oc3c(c(=O)c2c(O)c1/C=C/C(C)C)C(C=C(C)C)Oc1cc(O)ccc1-3 |  |  |  | TAC-R |  |  | MIC | >12.5 µg/mL
CO[C@H]1/C=C/O[C@@]2(C)Oc3c(C)c(O)c4c(O)c(c(/C=N/N5CCN(C)CC5)c(O)c4c3C2=O)NC(=O)/C(C)=C\C=C\[C@H](C)[C@H](O)[C@@H](C)[C@@H](O)[C@@H](C)[C@H](OC(C)=O)[C@@H]1C | Rifampicin-resistant (rRMP) | resazurin |  | H37Rv |  |  | MIC | >2 µM
CC1=NN(C(=O)c2ccncc2)C(=O)C1N=Nc1ccc(S(N)(=O)=O)cc1 |  | BACTEC |  | H37Rv |  |  | MIC | ≥12.8 µg/mL
CC[C@H](C)[C@@H](NC(=O)[C@@H](CCC(=O)O)NC(=O)[C@H](Cc1cnc[nH]1)NC(=O)[C@H](CC(C)C)NC(=O)[C@H](N)Cc1ccccc1)C(=O)N[C@H]1CCCCNC1=O |  |  |  |  |  |  | MIC | 12.5 µg/mL
Cc1cc(=O)n2[nH]cnc2n1 |  | resazurin |  | H37Rv |  |  | MIC bound | >6.25 µg/mL
CC(C)(C)OC(=O)CCCCC(NC(=O)c1ccc(NCc2ccc3nc(N)nc(N)c3c2Cl)cc1)C(=O)O |  | resazurin |  | ATCC 2724 |  |  | EC50 | >99 µM
CC1(C)CC(N=c2cc3n(-c4cc(Cl)cc(Cl)c4)c4ccccc4nc-3cc2Nc2cc(Cl)cc(Cl)c2)CC(C)(C)N1 |  |  |  | TBRP171 (INH RMP-resistant) |  |  | MIC | 0.03 µg/mL
O=C(O)c1ccc(OCc2ccccc2)cc1 |  |  |  | H37Rv |  |  | MIC | 15 µM
Cc1nn(-c2cc(Cl)ccc2[N+](=O)[O-])c(C)c1Cl |  | BACTEC |  | H37Rv |  |  | MIC bound | >12.5 µg/mL
COC(=O)c1ccc(NS(C)(=O)=O)cc1S(=O)(=O)NC(=O)Nc1nccc(C)n1 |  |  |  | H37Rv |  |  | MIC | >80 µg/mL
COc1ccc(OC)c(Sc2ccncc2)c1 |  |  |  | H37Rv |  |  | MIC90 | >6.25 µg/mL
COc1ccc(C2CC(=O)NC2=O)cc1OC |  | BACTEC |  | H37Rv |  |  | MIC bound | >12.5 µg/mL
C=C1C[C@@H](OC(=O)CSCCN(CC)CC)C2CCC[C@]3(CCC(=O)C23)C[C@H]1O |  | resazurin |  | mc(^2)7000 |  |  | MIC | 12–25 µg/mL
COc1cccc(Sc2nc(Cl)nc3nc[nH]c23)c1 |  |  |  | H37Ra |  |  | MIC | >12.8 µg/mL
N#C/C(=C\c1ccc[nH]1)n1nc2ccccc2n1 |  |  |  | H37Rv |  |  | EC50 | >12.5 µg/mL
NC(=O)Nc1c([N+](=O)[O-])cc(C(F)(F)F)cc1[N+](=O)[O-] |  | BACTEC |  | H37Rv |  |  | MIC bound | >12.5 µg/mL
COC(=O)c1ccc(Br)cc1S(=O)(=O)NC(=O)Nc1nccc(OC)n1 |  |  |  | H37Rv |  |  | MIC | >80 µg/mL
Cc1ccc(/C=N/NC(=O)c2cc(-c3ccc(F)cc3F)ccc2O)cc1 |  | resazurin |  | H37Rv |  |  | MIC | >6.25 µg/mL
O=C(NC12CC3CC(CC(C3)C1)C2)c1cc(=O)c2cc(Cl)cc(Cl)c2[nH]1 |  | visual reading / absorbance |  | H37Rv |  |  | MIC90 | 40.89 µM
N#C/C(=C/C1CCCCC1)n1nnc2ccccc21 |  |  |  | H37Rv |  |  | EC50 | >12.5 µg/mL
CCOC(=O)C1CCCN1C(=O)c1c2nc3c(C(=O)N4CCCC4C(=O)OCC)ccc(C)c3oc-2c(C)c(=O)c1N |  | BACTEC |  | H37Rv |  |  | MIC bound | >12.5 µg/mL
N#C/C(=C\c1ccc2c(c1)OCO2)n1nc2ccccc2n1 |  |  |  | H37Rv |  | 12.5 µg/mL | inhibition | 0%
Cc1ccnc(NC(=O)NS(=O)(=O)c2cc(NC(=O)CCl)ccc2C(=O)OC(C)C)n1 |  |  |  | H37Rv |  |  | MIC | >80 µg/mL
COc1c(N2CCNC(C)C2)c(F)cc2c(=O)c(C(=O)O)cn(C3CC3)c12 |  |  |  | 11 strains |  |  | MIC50 | 0.12 µg/mL
COc1cc(/C=C(\C#N)n2nnc3ccccc32)cc(OC)c1OC |  |  |  | H37Rv |  | 12.5 µg/mL | inhibition | 43%
COc1c(N2C[C@@H]3CCCN[C@@H]3C2)c(F)cc2c(=O)c(C(=O)O)cn(C3CC3)c12 |  |  |  | 23 isolates |  |  | MIC50 | 0.062 µg/mL
O=c1nc(SCc2ccc(Cl)cc2[N+](=O)[O-])c2[nH]cnc2[nH]1 |  |  |  | H37Rv |  |  | MIC90 | >6.25 µg/mL
Cc1ccc(NC(=O)/C(CC(=O)c2c[n+](=O)c3ccccc3n2[O-])=N/NC(=O)C[n+]2ccccc2)cc1.[Cl-] |  | BACTEC |  | H37Rv |  | 12.5 µg/mL | inhibition | 29%
NNC(=O)c1cc(-c2ccc(F)cc2F)ccc1O |  | resazurin |  | H37Rv |  |  | MIC | >6.25 µg/mL
COc1ccc(Sc2nc(Cl)nc3nc[nH]c23)cc1 |  |  |  | H37Rv |  |  | MIC90 | >6.25 µg/mL
O=[N+]([O-])c1cccc(N/N=C/CCC/C=N/Nc2cccc([N+](=O)[O-])n2)n1 |  | BACTEC |  | H37Rv |  | 12.5 µg/mL | inhibition | 4%
O=C(N/N=C/c1ccc([N+](=O)[O-])o1)c1cc(-c2ccc(F)cc2F)ccc1O |  | resazurin |  | H37Rv |  | 6.25 µg/mL | inhibition | 34%
COC(=O)c1ccc(NC(=O)C(Cl)(Cl)Cl)cc1S(=O)(=O)NC(=O)Nc1nccc(C)n1 |  |  |  | H37Rv |  |  | MIC | 80 µg/mL
FC(F)(F)c1ccc(Cl)c(NC(=S)SC2CCCCC2)c1 |  | BACTEC |  | H37Rv |  | 128 µg/mL | inhibition | 100%
Cc1cc(C)c2cc(C(=O)NC3CCCCCC3)[nH]c2c1 |  | visual reading / absorbance |  | H37Rv |  |  | MIC90 | 0.013 µM
O=C(NNC(=O)c1ccc(Cl)cc1Cl)c1ccco1 |  | BACTEC |  | H37Rv |  |  | MIC bound | >12.5 µg/mL
CCOC(=O)/C(C#N)=N/Nc1ccc(C(=O)OC)c(S(=O)(=O)NC(=O)Nc2nccc(OC)n2)c1 |  |  |  | H37Rv |  |  | MIC | >80 µg/mL
c1ccc2[nH]c(SSc3nc4ccccc4[nH]3)nc2c1 |  | BACTEC |  | H37Rv |  |  | MIC bound | >12.5 µg/mL
C=CCN1CCN(c2cc(O)c3c(c2)Oc2c4c(O)c5c(O)c(C)c6c(c5c2N3)C(=O)[C@@](C)(O/C=C/[C@H](OC)[C@@H](C)[C@@H](OC(C)=O)[C@H](C)[C@H](O)[C@H](C)[C@@H](O)[C@@H](C)/C=C/C=C(/C)C(=O)N4)O6)CC1 |  |  |  | H37Rv |  |  | MIC | 0.035 µg/mL
O=c1nc(SCc2ccc(F)cc2C(F)(F)F)c2[nH]cnc2[nH]1 |  |  |  | H37Ra |  |  | MIC | 16 µg/mL
CC1=CC[C@]2(C)CC[C@]3(C(=O)O)[C@@H](C(C)C)CC[C@H]3[C@@H]2C=C1 |  | visual reading / absorbance |  | H37Rv |  |  | MBC | 165.3 µM
CC(C)COc1ccc(C(=O)O)cc1 |  |  |  | H37Rv |  |  | MIC | 188 µM
Nc1nc2ccc(CSc3ccc(C(=O)NC(CCC(=O)O)C(=O)O)cc3)cc2c(=O)[nH]1 |  | BACTEC |  | H37Rv |  |  | MIC bound | >12.5 µg/mL
CC(C)[C@H]1CC[C@H]2[C@@H]3C=C[C@]4(C)CC[C@@]3(CC[C@]12C(=O)O)CO4 |  | visual reading / absorbance |  | H37Rv |  |  | MIC | 314 µM